Assay results as given in patent US10899795B2, “Modified epitopes for boosting CD4+ T-cell responses” (Katholieke Universiteit Leuven, priority 2012, dated 2021).

Test system: hemagglutinin-loaded dendritic cells
Assay: CD8+ T cell-dependent lysis of hemagglutinin-loaded dendritic cells, 51Cr release, with CD4+ T cells from peptide-immunized mice
Format: cell-based, C57BL/6 mice
Settings: CD4+ T cells from mice immunized with the peptide plus CD8+ T cells from hemagglutinin-immunized mice

YSTVASSLV
lysis of hemagglutinin-loaded dendritic cells (51Cr release): no lysis
